{"source": "paper PMC10223265", "about": "(Viruses, 2023)", "assay": "general procedure: Fmoc solid-phase peptide synthesis", "conditions": "whole synthesis, 210 nm, scale of the general procedure 0.1 mmol", "data": [{"substance": "MTWEEWDKKIEELIKKSEELIKKIEEQIKKQEESIKK(PEG4-TAKW)", "values": [{"measurement": "final HPLC purity", "value": 99, "unit": "% purity"}]}]}
